From US20230181697A1 (published 2023)

Molecular target: T1, S1-protein variant of SARS-CoV-2 containing a single mutation (N501Y) (SARS-CoV-2, UniProt P0DTC2 16-685)
T1 construct: domain: S1 subunit; also called S1-protein with a single mutation N501Y
Experiment: ELISA, S1 N501Y immobilized, rhSP-D titrated (FIG. 4D)

B1: full length recombinant human rhSP-D produced in human cell line GlycoExpress (GEX), variant Met11, (other)
chain: AEMKTYSHRTMPSACTLVMCSSVESGLPGRDGRDGREGPRGEKGDPGLPGAAGQAGMPGQAGPVGPKGDNGSVGEPGPKGDTGPSGPPGPPGVPGPAGREGPLGKQGNIGPQGKPGPKGEAGPKGEVGAPGMQGSAGARGLAGPKGERGVPGERGVPGNTGAAGSAGAMGPQGSPGARGPPGLKGDKGIPGDKGAKGESGLPDVASLRQQVEALQGQVQHLQAAFSQYKKVELFPNGQSVGEKIFKTAGFVKPFTEAQLLCTQAGGQLASPRSAAENAALQQLVVAKNEAAFLSMTDSKTEGKFTYPTGESLVYSNWAPGEPNDDGGSEDCVEIFTNGKWNDRACGEKRLVVCEF
B1: binds.
